PubChem BioAssay AID504761 | Drosophila RNAi Screening Center, 2011
In all, the deposit lists about 22,000 reagents; shown is a random part of those with a known target gene and a result. Of all reagents, 116 (0.52%) were called active. 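Calls depend on retest data that are not deposited; infection was ranked per plate without normalising between plates; the unit of the infection score is not given.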 Further read-outs or replicates are left out here. Not given: the amount of reagent, the time to read-out.

Screen: 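Genome-wide fly cell screen for genes dengue virus requires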 (primary screen)
Cells: D.Mel-2 cells from Drosophila
Reagent: long dsRNA against Drosophila genes
Conditions: infection with dengue virus type 2; dose and infection time not stated
Measured: 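Per well on two replicate plates, imaging gave the percent of cells positive for viral envelope protein, ranked by infection, and a nuclear count of cells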
Reading the numbers: infection score: higher = more virus-infected cells
Rule for the call: 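Low infection ranks in the two replicates (chance level up to 0.065) followed by a retest with a 1.5-fold or larger significant decrease, p below 0.05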
Meaning of the calls: active = confirmed: knock-down lowers infection; inactive = not picked or not confirmed

CG14227 [DRSC19584]
- infection score, replicate 1: 32.5
- activity call: inactive

CG14227 [DRSC29213]
- infection score, replicate 1: 14.3
- activity call: inactive

CG34126 [DRSC02726]
- infection score, replicate 1: 6.58
- activity call: inactive

CG34126 [DRSC22079]
- infection score, replicate 1: 1.77
- activity call: inactive

CG12078 [DRSC08242]
- infection score, replicate 1: 3.81
- activity call: inactive

Not1 [DRSC06787]
- infection score, replicate 1: 3.05
- activity call: inactive

Not1 [DRSC06794]
- infection score, replicate 1: 13
- activity call: inactive

jbug [DRSC03952]
- infection score, replicate 1: 2.49
- activity call: inactive

jbug [DRSC04114]
- infection score, replicate 1: 3.69
- activity call: inactive

jbug [DRSC04167]
- infection score, replicate 1: 2.47
- activity call: inactive

jbug [DRSC04388]
- infection score, replicate 1: 4.02
- activity call: inactive

jbug [DRSC29978]
- infection score, replicate 1: 8.36
- activity call: inactive
